Our source for the Kd values is article PMC7793522, “TCR Recognition of Peptide–MHC-I: Rule Makers and Breakers” (2020).

The target in this experiment is T1, human cytomegalovirus (CMV), NLV peptide peptide on HLA-A*02:01 (human).
T1 chain: NLVPMVATV
Briefly: data from [33]; method not given; soluble, other. The settings on record: chains alpha TRAV26-2*01 CDR3:beta TRBV7-6*01 CDR3.

B1: C25 (peptide)
chain 1: ILDNNNDMR
chain 2: ASSLAPGTTNEKLF
The term Kd denotes the constant that tells how readily two partners part at equilibrium. Low readings indicate a tighter complex, high ones a looser complex. B1 gave a dissociation constant Kd of 4.7 µM.
